The values that follow come from article PMC11790949, “A multiplex method for rapidly identifying viral protease inhibitors” (Molecular Systems Biology, 2025).

Protein sequences, listed by entry. Tags and fused reporters are not part of them. Residues count along the entry.
UniProt Q83883, 1101-1281 limits assumed: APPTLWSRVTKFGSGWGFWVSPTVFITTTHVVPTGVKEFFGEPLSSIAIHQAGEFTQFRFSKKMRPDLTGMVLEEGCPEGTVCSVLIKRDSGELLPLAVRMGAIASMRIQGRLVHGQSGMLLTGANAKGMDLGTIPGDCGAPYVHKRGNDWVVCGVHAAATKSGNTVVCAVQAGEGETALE
UniProt P04584, 514-612 limits assumed: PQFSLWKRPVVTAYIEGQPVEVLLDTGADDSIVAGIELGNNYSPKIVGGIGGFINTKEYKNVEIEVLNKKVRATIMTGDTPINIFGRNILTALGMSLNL
UniProt P03313, 1541-1723 limits assumed: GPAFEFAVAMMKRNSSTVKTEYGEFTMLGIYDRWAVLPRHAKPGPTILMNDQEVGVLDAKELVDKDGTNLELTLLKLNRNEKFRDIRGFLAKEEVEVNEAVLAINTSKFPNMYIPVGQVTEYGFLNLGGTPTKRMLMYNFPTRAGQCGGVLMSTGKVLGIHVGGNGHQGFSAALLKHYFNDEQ

The target in one assay is T1, EMCV-3C (Encephalomyocarditis virus, UniProt P03304).
T1 sequence (P03304 1626-1830 limits assumed): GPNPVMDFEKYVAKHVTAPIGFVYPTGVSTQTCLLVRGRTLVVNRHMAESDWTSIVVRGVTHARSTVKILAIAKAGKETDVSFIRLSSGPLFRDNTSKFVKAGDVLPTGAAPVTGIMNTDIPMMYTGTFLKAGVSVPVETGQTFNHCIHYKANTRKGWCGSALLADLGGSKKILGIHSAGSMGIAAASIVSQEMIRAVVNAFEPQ
In words: Yeast dose-response liquid growth assay (individual model). It counts as cell-based. The conditions noted are these: EMCV-3C model; for Max relative growth: OD595 relative to lowest drug concentration.

The test system of another assay is LV-3CL. Described as above. The assay is classed as cell-based, Lordsdale virus. The conditions noted are these: LV-3CL model.
The next assay deals with NWV-3CL (Norovirus, UniProt Q83883). Described as above. It counts as cell-based, Norwalk virus. The following applies: NWV-3CL model.
For another assay, the target named is HIV-2-PR (Human immunodeficiency virus type 2 subtype A, UniProt P04584). Described as above. The conditions noted are these: HIV-2-PR model; OD595 relative to lowest drug concentration. The assay is classed as cell-based.
The next assay concerns the target CV-B3-3C (Coxsackievirus B3, UniProt P03313). The assay is classed as cell-based.
Another assay concerns DENV-NS3-GS-NS2B. Description: Yeast dose-response liquid growth assay (individual model). It counts as cell-based, Dengue virus.
The next assay has as its system SV-A-3C. The description is as above. The assay is classed as cell-based, Salivirus. The conditions noted are these: SV-A-3C model; for Max relative growth: OD595 relative to lowest drug concentration.
The subject of another assay is LGTV-NS2B-GS-NS3. The assay is classed as cell-based, Langat virus.
Another assay relates to HCV-NS3-GS-NS4A. In words: Yeast dose-response liquid growth assay (individual model). It counts as cell-based.
The mark [1] stands for this setting: OD595 relative to lowest drug concentration.

Regarding `Clc1ccc2nc3ccccc3cc2c1` [NSC179818], at EMCV-3C, the “Inhibitor / Validation (true or false inhibitor in individual yeast model)” value (shortened to “Inhibitor / Validation”) is on record as “FALSE” and the Max relative growth came out at 1.075. `Cc1ccc(Nc2nc(Cl)nc3ncn(C)c23)c(C)c1` [NSC19141]: the “Inhibitor / Validation” value in the assay on LV-3CL is on record as “FALSE”. The Max relative growth with LV-3CL (setting [1]) was 0.7294.

As to `CCOC(=O)c1[nH]c(C(=O)O)c(OC(=O)CC)c1C` [NSC13434], the “Inhibitor / Validation” value at NWV-3CL is reported as “FALSE”. Moreover, on NWV-3CL (setting [1]), the Max relative growth came out at 0.2328. Regarding `Nc1ccc(Br)cc1Br` [NSC88324], at HIV-2-PR, the Max relative growth amounted to 1.769. `CCc1cc(=O)oc2cc(OC(=O)c3ccco3)ccc12` [CB6728297]: the Max relative growth on CV-B3-3C was found to be 6.507. As to `COc1cc2c(=O)n3c4c(cccc4c2cc1OC)CC3` [NSC276736], the “Inhibitor / Validation” value in the assay with DENV-NS3-GS-NS2B is reported as “FALSE”. Moreover, the Max relative growth with DENV-NS3-GS-NS2B (setting [1]) is on record as 1.172. Regarding `COc1cc(O)c(C(=O)/C=C/c2ccccc2)c(OC)c1` [NSC51351], in the assay on SV-A-3C, the “Inhibitor / Validation” value is “FALSE” and the Max relative growth came out at 0.2581. As for `N#Cc1c(N)nc(N)nc1Nc1ccc(Br)cc1` [NSC71866], in the assay on SV-A-3C, the “Inhibitor / Validation” value is reported as “FALSE” and the Max relative growth amounted to 0.4724. For the same molecule, in the assay with LGTV-NS2B-GS-NS3, the “Inhibitor / Validation” value is on record as “FALSE” and the Max relative growth turned out to be 0.8872.

As to `Cc1cc2c(cc1C)N(C(=O)CCl)CC(=O)N2` [NSC138389], in the assay on LGTV-NS2B-GS-NS3, the “Inhibitor / Validation” value is listed as “FALSE” and the Max relative growth turned out to be 0.4976. For `O=C(O)/C=C/C(=O)N1Cc2cc3ccccc3nc2C1` [NSC140899], the “Inhibitor / Validation” value in the assay with HCV-NS3-GS-NS4A is “FALSE”. In addition, the Max relative growth with HCV-NS3-GS-NS4A (setting [1]) came out at 0.5051. For the molecule `N#C/C(=C\c1cccnc1)c1ccc(Br)cc1` [NSC151262], at EMCV-3C, the Max relative growth amounted to 2.359.
